Compound potency records, mixed from different reports. Data source: NIAID ChemDB in PubChem.

Shared fields: tests in culture; species: Staphylococcus aureus; measure: MIC

An empty or dashed field is not shown. Rows are shuffled and stem from different studies.

smiles,strain,value
CN[C@@H]1[C@@H](O)[C@@H](O[C@@H]2[C@@H](O)[C@H](O[C@H]3O[C@H](CN)CC[C@H]3N)[C@@H](N)C[C@H]2N)OC[C@]1(C)O,ATCC 6538,2.5 µg/mL
COc1cc2oc(=O)ccc2cc1CC(O)C(C)(C)O,,125 µg/mL
COc1c(N)cc2c(c1C(C)C)CC[C@H]1C(C)(C)CCC[C@]21C,,>32 µg/mL
O=C(O)c1cn(C2CC2)c2c(F)c(N3CCN(CCO)CC3)c(Cl)cc2c1=O,422,0.5 µg/mL
CC(C)c1c(O)ccc2c1CCC1C(C)(C)CCC[C@]21C,Methicillin-resistant,2 µg/mL
CCCCCCCCCCCCCCCCCCC(CC)C(=O)O,,100 µM
CC(=O)Nc1cc2c(c(C(C)C)c1O)CC[C@H]1C(C)(C)CCC[C@]21C,,>32 µg/mL
CC(C)c1cc2c(cc1O[C@@H]1O[C@H](CO)[C@@H](O)[C@H](O)[C@H]1O)[C@@]1(C)CCCC(C)(C)[C@@H]1CC2,,32 µg/mL
CCC1CN(c2c(Cl)cc3c(=O)c(C(=O)O)cn(C4CC4)c3c2F)CCN1,133,0.25 µg/mL
CCCc1c(O)ccc2c1CC[C@H]1C(C)(C)CCC[C@]21C,,2 µg/mL
CC(C)(C)n1cc(C(=O)O)c(=O)c2cc(F)c(N3CCN(C4C=CCC4)CC3)cc21,,0.06 µg/mL
COc1c(C)cc2c(c1C(C)C)CC[C@H]1C(C)(C)CCC[C@]21C,,>32 µg/mL
CC(C)c1c(O)ccc2c1CCC1C(C)(C)CCC[C@]21C,,2 µg/mL
CN1CCN(c2c(F)cc3c(=O)c(C(=O)O)cn(C4CC4)c3c2Cl)CC1,133,0.06 µg/mL
CC(=O)OC[C@H]1O[C@@H](Oc2cc3c(cc2C(C)C)CC[C@H]2C(C)(C)CCC[C@]32C)[C@H](OC(C)=O)[C@@H](OC(C)=O)[C@H]1OC(C)=O,,>32 µg/mL
COCN1OCC(N)C1=O,,2500 µM
CCCCn1sc2cc(F)ccc2c1=O,ATCC 6538,50 µg/mL
CN1CCN(c2c(Cl)cc3c(=O)c(C(=O)O)cn(C4CC4)c3c2F)CC1,133,0.25 µg/mL
CC(C)c1cc2c(c(O)c1O)[C@@]1(C(=O)O)CCCC(C)(C)C1CC2,,32 µg/mL
CC(C)c1c(O)ccc2c1C[C@@H](O)[C@H]1C(C)(C)CCC[C@]21CO,Methicillin-resistant,8 µg/mL
NC1CON(Cc2ccc(F)cc2)C1=O,,>2500 µM
Cc1c(N2CC[C@H](N)C2)c(F)cn2c(=O)c(C(=O)NCC(=O)O)cc(C3CC3)c12,NCTC10649,50 µg/mL
CCCCCCCCCCCCC(C(=O)O)c1ccccc1,,200 µM
CCc1c(O)ccc2c1CC[C@H]1C(C)(C)CCC[C@]21C,,2 µg/mL
O=C(O)c1cn(C2CC2)c2c(Cl)c(N3CCNCC3)c(F)cc2c1=O,133,0.06 µg/mL
Cc1c(N2CC3=CCCN[C@H]3C2)c(F)cn2c(=O)c(C(=O)O)cc(C3CC3)c12,CG55,0.025 µg/mL
CC(=O)OC[C@H]1O[C@H](Oc2cc3c(cc2C(C)C)CC[C@H]2C(C)(C)CCC[C@]32C)[C@@H](OC(C)=O)[C@@H](OC(C)=O)[C@@H]1OC(C)=O,,>32 µg/mL
CCCN1CCN(c2cc(=O)c3nc4c(oc3c2)c2c(=O)c3c(O)c(C)c5c(c34)=C(O)[C@@](C)(O/C=C/[C@H](OC)[C@@H](C)[C@@H](OC(C)=O)[C@H](C)[C@H](O)[C@H](C)[C@@H](O)[C@@H](C)/C=C/C=C(/C)C(=O)N2)O5)CC1,ATCC 29213,0.0039 µg/mL
CC(C)CCC[C@H](C)CC(=O)O,,100 µM
CCCCNC(=O)c1c(SSc2cccc(C(F)(F)F)c2C(=O)NCCCC)cccc1C(F)(F)F,ATCC 6538,50 µg/mL
CC(C)c1c(O)c(CO)cc2c1CC[C@H]1C(C)(C)CCC[C@]21C,,>32 µg/mL
COc1ccc2c(c1C(C)C)C[C@H]1OC[C@@]23CCCC(C)(C)[C@H]13,Methicillin-resistant,>32 µg/mL
Cc1c(N2CC[C@H](N)C2)c(F)cn2c(=O)c(C(=O)O)cc(C3CCCC3)c12,1775 (ciprofloxacin-resistant),50 µg/mL
COC(=O)CN1OCC(N)C1=O,,>2500 µM
CC1CN(c2c(Cl)cc3c(=O)c(C(=O)O)cn(C4CC4)c3c2Cl)CCN1,422,0.125 µg/mL
CC[C@H](N)C1CCN(c2c(F)cn3c(=O)c(C(=O)O)cc(C4CC4)c3c2C)C1,NCTC10649,0.0005 µg/mL
CCCCn1sc2c(C(F)(F)F)cccc2c1=O,ATCC 6538,40 µg/mL
CC(C)c1c(O)c(C=O)cc2c1CC[C@H]1C(C)(C)CCC[C@]21C,,8 µg/mL
CN(O)C(=O)CN1OCC(N)C1=O,,>2500 µM
CO[C@H]1/C=C/O[C@@]2(C)Oc3c(C)c(O)c4c(O)c(c(/C=N/N5CCN(C)CC5)c(O)c4c3C2=O)NC(=O)/C(C)=C\C=C\[C@H](C)[C@H](O)[C@@H](C)[C@@H](O)[C@@H](C)[C@H](OC(C)=O)[C@@H]1C,Newman,0.002 µg/mL
CC(C)c1cc2c(cc1OCc1ccccc1)[C@@]1(C)CCCC(C)(C)[C@@H]1CC2,,>32 µg/mL

The first 2 rows once more:

smiles | strain | value
CN[C@@H]1[C@@H](O)[C@@H](O[C@@H]2[C@@H](O)[C@H](O[C@H]3O[C@H](CN)CC[C@H]3N)[C@@H](N)C[C@H]2N)OC[C@]1(C)O | ATCC 6538 | 2.5 µg/mL
COc1cc2oc(=O)ccc2cc1CC(O)C(C)(C)O |  | 125 µg/mL